This is a selection; strong and weak results do not stand in their true shares. Some structures show a salt or complex split into parts, the way the source records it. Active and inactive are the calls of the source.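 How the source made its calls: active means highest replicate inhibition at or above 60% at 9 µM, even if other replicates fall short; inactive means all replicates below 60% inhibition.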

In this test the test system is Kaposi's sarcoma herpesvirus LANA C-terminal domain (residues 932-1162) DNA binding. The experiment in a line: inhibitors of KSHV C-LANA binding to DNA, primary screen, biochemical, fluorescence polarization, FAM-LBS DNA, MBP-C-LANA, single point (AID 504423).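 Further: 0% = neutral control wells and 100% = 4 µM acridine orange control.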 Conditions: at 9 µM, stronger effect = higher value.
In general, inhibition refers to the change of the read-out against control, counted positive when it falls. With `COc1ccc(NP(C)(=O)Oc2ccccc2OC)cc1` (stereo not given), the inhibition was inactive: -0.884%.

As for `CN(C)CCOC(=O)C(O)(c1ccccc1)C1CCCCC1` (stereo not given), the inhibition was inactive: 0.802%.

Consider `COc1ccc(OP(C)(=O)Nc2cccc(Br)c2)cc1` (stereo not given), for which the inhibition was inactive: 0.279%.

Regarding `Cc1c(C(c2ccc3c(c2)OCO3)c2c(C)n(C)n(-c3ccccc3)c2=O)c(=O)n(-c2ccccc2)n1C.O=[N+]([O-])c1cc([N+](=O)[O-])c(O)c([N+](=O)[O-])c1`, the inhibition was inactive: -0.0427%.

`Cc1cc(-c2cccc3ccccc23)c(C)cn1.O=[N+]([O-])c1cc([N+](=O)[O-])c(O)c([N+](=O)[O-])c1`: the inhibition is inactive: 0.304%.

Take `O=[N+]([O-])c1cc([N+](=O)[O-])c(NCC2CCS(=O)(=O)C2)c([N+](=O)[O-])c1` (stereo not given): the inhibition was inactive: -0.234%.

As for `O=[N+]([O-])c1ccc(OP2(=O)COCCO2)cc1` (stereo not given), the inhibition is inactive: -0.717%.

Take `CCOP(C)(=S)SCC(=O)NC(C)(CC)C(=O)O` (stereo not given): the inhibition is inactive: -1.69%.

As for `CP(=O)(Nc1ccc(SC(F)(F)F)cc1)Oc1ccc(F)cc1` (stereo not given), the inhibition was inactive: -1.18%.

For the compound `Cc1ccccc1NP(C)(=O)Nc1ccccc1C`, the inhibition is inactive: -2.07%.

As for `CP(=O)(Nc1ccc2c(c1)OCCO2)Oc1ccccc1` (stereo not given), the inhibition was inactive: -0.91%.

Take `CC(C)c1ccc(OP(C)(=O)Nc2ccc(SC(F)(F)F)cc2)cc1` (stereo not given): the inhibition is inactive: 0.246%.

Consider `CP(=O)(Nc1ccccc1F)Oc1ccccc1` (stereo not given), for which the inhibition is inactive: -1.24%.

`COc1ccc2c(c1O)-c1c(O)c(OC)cc3c1[C@H](C2)[N+](C)(C)CC3.O=[N+]([O-])c1cc([N+](=O)[O-])c([O-])c([N+](=O)[O-])c1[O-]`: the inhibition was inactive: 5.41%.

Take `O=C(OCCN1CCN(CCOCc2ccccc2)CC1)C(O)(c1ccccc1)c1ccccc1`: the inhibition was inactive: 0.268%.

Regarding `O=C(OC1CN2CCC1CC2)c1ccc([N+](=O)[O-])cc1` (stereo not given), the inhibition was inactive: -1.25%.

Take `COc1ccc(OP(C)(=O)Nc2ccc(SC(F)(F)F)cc2)cc1` (stereo not given): the inhibition was inactive: -0.472%.

For `CCOC(=O)c1ccc(NP(C)(=O)Oc2ccc(F)cc2)cc1` (stereo not given), the inhibition was inactive: -0.393%.

As to `O=[N+]([O-])c1cc([N+](=O)[O-])c(OC2CCCCC2O)c([N+](=O)[O-])c1` (stereo not given), the inhibition is inactive: 1.09%.

For `CCCCCOc1ccc(NP(C)(=O)Oc2ccc(Cl)cc2Cl)cc1` (stereo not given), the inhibition is inactive: -0.819%.

For the compound `CP(=O)(Nc1ccccc1)Oc1ccc(F)cc1` (stereo not given), the inhibition was inactive: 0.582%.

As for `CCN(CC)CCCOC(=O)C(O)(c1ccccc1)C1CCCCC1` (stereo not given), the inhibition was inactive: -1.5%.

`Cc1c([N+](=O)[O-])cc([N+](=O)[O-])c(Br)c1[N+](=O)[O-]`: the inhibition is inactive: 0.322%.

`COc1ccc(OP(C)(=O)Nc2ccccc2Br)cc1` (stereo not given): the inhibition is inactive: 1.86%.

For `COc1ccccc1OP(C)(=O)Nc1ccc(C)c(C)c1` (stereo not given), the inhibition was inactive: 0.664%.

For the compound `Cc1cc(C)cc(OP(C)(=O)Nc2cccc(C(F)(F)F)c2)c1` (stereo not given), the inhibition was inactive: 0.984%.

`O=C1C(O)=C([N+](=O)[O-])C(=O)C(O)=C1[N+](=O)[O-]`: the inhibition was inactive: 40.3%.

Consider `CP(=O)(Nc1ccc(Cl)cc1Cl)Oc1ccccc1` (stereo not given), for which the inhibition is inactive: 1.12%.

On to `CCCCCCCCCCCCCCCC1C[N+](C)(C)CCOP(C)(=O)O1` (stereo not given), for which the inhibition is inactive: -1.76%.

Regarding `CP(=O)(OCCOc1ccccc1)OCCOc1ccccc1`, the inhibition was inactive: 0.488%.

Consider `CN(C)CCOC(=O)C(O)(c1ccccc1)C1CCCC1` (stereo not given), for which the inhibition is inactive: 1.62%.

For the compound `COc1ccc(OP(C)(=O)Nc2ccccn2)cc1` (stereo not given), the inhibition is inactive: 0.996%.

Turning to `COc1ccccc1OP(C)(=O)Nc1ccc(Br)cc1` (stereo not given), the inhibition is inactive: -0.651%.

On to `CCc1ccc(OP(C)(=O)O)cc1`, for which the inhibition was inactive: 0.429%.

As for `COc1ccccc1OP(C)(=O)Nc1ccc(C)cc1C` (stereo not given), the inhibition was inactive: -0.486%.

Consider `CP(=O)(Nc1ccccn1)Oc1ccccc1` (stereo not given), for which the inhibition was inactive: -2.05%.

With `Cc1c(NP(C)(=O)Oc2ccc(C(C)C)cc2)c(=O)n(-c2ccccc2)n1C` (stereo not given), the inhibition was inactive: 2.21%.

For `O=[N+]([O-])c1cc([N+](=O)[O-])c(Nc2ccccn2)c([N+](=O)[O-])c1`, the inhibition was inactive: -2.97%.

As to `CCc1ccc(OP(C)(=O)Nc2cccnc2)cc1` (stereo not given), the inhibition is inactive: -2.99%.

Regarding `CP(=O)(Oc1ccccc1)N1CCOC1=O` (stereo not given), the inhibition was inactive: 1.47%.

On to `O=C(OCCCN1CCCC1)C(O)(c1ccccc1)C1CCCCC1` (stereo not given), for which the inhibition is inactive: -0.87%.

In the case of `COc1ccccc1OP(C)(=O)Nc1c(C)n(C)n(-c2ccccc2)c1=O` (stereo not given), the inhibition is inactive: 1.29%.

With `COc1ccc(OP(C)(=O)Nc2ccc(Br)cc2)cc1` (stereo not given), the inhibition was inactive: 1.35%.

As for `CCN(CC)CC(O)COC(=O)C(O)(c1ccccc1)C1CCCCC1` (stereo not given), the inhibition is inactive: -1.62%.

Consider `CN(C)C(=O)c1c([N+](=O)[O-])cc([N+](=O)[O-])cc1[N+](=O)[O-]`, for which the inhibition was inactive: -1.79%.

As to `CP(=O)(Nc1ccc(Cl)cc1)Oc1ccc(F)cc1` (stereo not given), the inhibition is inactive: 0.237%.

As for `COc1ccccc1OP(C)(=O)Nc1ccccc1Br` (stereo not given), the inhibition is inactive: -59.1%.

Take `CC(C)(C)c1ccc(OP(C)(=O)O)cc1`: the inhibition was inactive: -2.16%.

As for `CP(=O)(OC12CC3CC(CC(C3)C1)C2)OC12CC3CC(CC(C3)C1)C2`, the inhibition was inactive: -0.897%.

Turning to `CCOC(=O)c1ccc(NP(C)(=O)Oc2ccc(Cl)cc2)cc1` (stereo not given), the inhibition was inactive: -1.08%.

With `COc1ccccc1OP(C)(=O)Nc1ccccc1` (stereo not given), the inhibition was inactive: -0.802%.

For the compound `CP(=O)(Nc1ccccc1Br)Oc1ccccc1` (stereo not given), the inhibition is inactive: -0.514%.

As for `CP(=S)(Nn1cnnc1)Oc1ccccc1` (stereo not given), the inhibition is inactive: 8.51%.

With `Cc1cc(C)cc(OP(C)(=O)Nc2ccc(SC(F)(F)F)cc2)c1` (stereo not given), the inhibition was inactive: -1.72%.

Turning to `CP(=O)(NC(=O)Nc1ccccc1)Oc1ccccc1` (stereo not given), the inhibition was inactive: -0.0325%.

Consider `CCc1ccc(OP(C)(=O)N2CCN(c3ccc([N+](=O)[O-])cc3)CC2)cc1` (stereo not given), for which the inhibition is inactive: 5.1%.

Consider `CP(=O)(Oc1ccccc1)OC(c1ccccc1)C(F)(F)F` (stereo not given), for which the inhibition is inactive: 0.645%.

Regarding `Cc1cccc(C)c1OP(C)(=O)Nc1ccc(SC(F)(F)F)cc1` (stereo not given), the inhibition is inactive: -0.74%.

Take `CP(=O)(Nc1ccccn1)Oc1ccc(Cl)cc1` (stereo not given): the inhibition is inactive: 0.0655%.

As to `CCOP(C)(=S)SCC(=O)NC(C)C(=O)O` (stereo not given), the inhibition was inactive: -0.284%.
